Results of unrelated studies side by side (data: NIAID ChemDB).

Common to all: whole-cell or culture tests; agent: Mycobacterium tuberculosis

MIC50, MIC90 and the like: level of inhibition, or share of isolates inhibited.

compound,endpoint,strain,tested at,read by,mutations,result
CO[C@H]1/C=C/O[C@@]2(C)Oc3c(C)c(O)c4c(=O)c(c5oc6cc(N7CCN(CC(C)C)CC7)cc(=O)c6nc5c4c3=C2O)NC(=O)/C(C)=C\C=C\[C@H](C)[C@H](O)[C@@H](C)[C@@H](O)[C@@H](C)[C@H](OC(C)=O)[C@@H]1C,MIC90,20 strains,-,-,-,0.035 µg/mL
CO[C@H]1/C=C/O[C@@]2(C)Oc3c(C)c(O)c4c(O)c(cc(O)c4c3C2=O)NC(=O)/C(C)=C\C=C\[C@H](C)[C@H](O)[C@@H](C)[C@@H](O)[C@@H](C)[C@H](OC(C)=O)[C@@H]1C,MIC,Schiavo,-,-,-,0.02 µg/mL
CCCCNCc1cccc(Cl)c1,MIC,H37Rv,-,-,-,60 µg/mL
CO[C@H]1/C=C/O[C@@]2(C)Oc3c(C)c(O)c4c(=O)c(c5oc6cc(N7CCN(CC(C)C)CC7)cc(=O)c6nc5c4c3=C2O)NC(=O)/C(C)=C\C=C\[C@H](C)[C@H](O)[C@@H](C)[C@@H](O)[C@@H](C)[C@H](OC(C)=O)[C@@H]1C,MIC,Kurono,-,-,-,0.002 µg/mL
O=C1CSC2(CCCCC2)N1NC(=O)C(O)(c1ccccc1)c1ccccc1,inhibition,H37Rv,6.25 µg/mL,-,-,1%
O=C1c2cc(I)ccc2-n2c1nc1ncccc1c2=O,MIC,TN1040RFLP:N (DRUG sensitive),-,-,-,0.06 µg/mL
CO[C@H]1/C=C/O[C@@]2(C)Oc3c(C)c(O)c4c(O)c(c(/C=N/N5CCN(C)CC5)c(O)c4c3C2=O)NC(=O)/C(C)=C\C=C\[C@H](C)[C@H](O)[C@@H](C)[C@@H](O)[C@@H](C)[C@H](OC(C)=O)[C@@H]1C,MIC90,20 strains,-,-,-,1.25 µg/mL
COc1ccc(C2C(C(=O)Nc3ccc(F)c(Cl)c3)=C(C)NC(C)=C2C(=O)Nc2ccc(F)c(Cl)c2)cc1,MIC,H37Rv,-,-,-,>6.25 µg/mL
N#CC(Nc1ccccc1F)c1ccc(OCc2nc3ccccc3[nH]2)cc1,MIC,H37Rv,-,resazurin,-,2.81 µg/mL
Nc1nc(-c2ccccc2)c(-c2ccccc2)s1,inhibition,H37Rv,6.25 µg/mL,BACTEC,-,57%
Cc1cc(C(=O)/C=C/c2c(Cl)cccc2Cl)ccc1O,inhibition,H37Rv,6.25 µg/mL,-,-,90%
CC1=C(C(=O)Nc2ccc(C)cc2)C(c2c3ccccc3cc3ccccc23)C(C(=O)Nc2ccccc2F)=C(C)N1,MIC,H37Rv,-,-,-,>6.25 µg/mL
CO[C@H]1/C=C/O[C@@]2(C)Oc3c(C)c(O)c4c(O)c(c(/C=N/N5CCN(C)CC5)c(O)c4c3C2=O)NC(=O)/C(C)=C\C=C\[C@H](C)[C@H](O)[C@@H](C)[C@@H](O)[C@@H](C)[C@H](OC(C)=O)[C@@H]1C,MIC,Clinical isolate 5,-,-,-,0.5 µg/mL
CCCCn1c(=O)c2c3c(cnc2n(CCCC)c1=O)C(=O)C1=C(C3=O)C2CCC1CC2,EC99,H37Rv,-,luminescence,pSMT1 luciferase reporter plasmid,9.6 µg/mL
Nc1ccc(C(=O)O)c(O)c1,MIC,Clinical isolate 3,-,-,-,0.1 µg/mL
CCOC(=O)c1csc(-c2ccc(COC(=O)c3ccccc3)o2)n1,MIC bound,H37Rv,-,BACTEC,-,>12.5 µg/mL
Cc1c(F)c(N2CCNC(C)C2)cc2c1c(=O)c(C(=O)O)cn2C1CC1,MIC,Clinical strain,-,-,-,0.5 µg/mL
CC1SC2(CCCC2)N(NC(=O)C(O)(c2ccccc2)c2ccccc2)C1=O,inhibition,H37Rv,6.25 µg/mL,-,-,0%
O=C1c2cc(Br)ccc2-n2c1nc1ccccc1c2=O,MIC,H37Rv,-,-,-,0.06 µg/mL
COC1=C(OC)C(=O)C([C@H]2COc3c(cc(OC)c(OC)c3OC)C2)=CC1=O,MIC,H37Ra,-,-,-,12.5 µg/mL
CC1=C(C(=O)Nc2ccc(F)cc2)C(c2cccc(Cl)c2)C(C(=O)Nc2ccc(F)cc2)=C(C)N1,MIC,H37Rv,-,-,-,>6.25 µg/mL
O=C(CNc1ccc([N+](=O)[O-])cc1)Sc1nnc(-c2ccncc2)o1,inhibition,H37Rv (ATCC 27294),0.0052 µM,BACTEC / radiometric,-,96%
CO[C@H]1/C=C/O[C@@]2(C)Oc3c(C)c(O)c4c(=O)c(c5oc6cc(N7CCN(C(C)C)CC7)cc(=O)c6nc5c4c3=C2O)NC(=O)/C(C)=C\C=C\[C@H](C)[C@H](O)[C@@H](C)[C@@H](O)[C@@H](C)[C@H](OC(C)=O)[C@@H]1C,MIC90,20 strains,-,-,-,0.07 µg/mL
C=C(C)C1CC2(C)C(C)CC(OC(=O)/C(C)=C\C)CC2C(OC(=O)/C(C)=C\C)C1O,MIC,H37Rv,-,BACTEC,-,≥12.5 µg/mL
CCCCn1c(=O)c2c3c(cnc2n(CCCC)c1=O)C(=O)C1=C(C3=O)C2CCC1C2,EC99,H37Rv,-,luminescence,pSMT1 luciferase reporter plasmid,7.23 µg/mL
CC1=C(C(=O)Nc2cccc([N+](=O)[O-])c2)C(c2ccccc2O)C(C(=O)Nc2cccc([N+](=O)[O-])c2)=C(C)N1,MIC,H37Rv,-,-,-,<12.5 µg/mL
O=[N+]([O-])c1cn2c(n1)OC[C@@H](OCc1ccc(Oc3ccc(C(F)(F)F)nc3)cn1)C2,MIC90,-,-,resazurin,-,0.06 µM
CCN(CC)CCNc1ccc(N)c2sc3ccccc3c(=O)c12,inhibition,H37Rv,12.5 µg/mL,BACTEC,-,71%
Cc1ccc(NCC(=O)Sc2nnc(-c3ccncc3)o2)cc1,inhibition,H37Rv (ATCC 27294),0.1133 µM,BACTEC / radiometric,-,64%
Cc1cc(C(=O)/C=C/c2cccc([N+](=O)[O-])c2)ccc1O,MIC,H37Rv,-,-,-,>6.25 µg/mL
O=C(O)c1ccccn1,MIC90,H37Rv,-,resazurin / absorbance,-,>406 µM
O=C(O)c1ccccc1C(=O)NNC(=O)c1ccccc1C(=O)O,inhibition,H37Rv,12.5 µg/mL,BACTEC,-,34%
CC1=C(C(=O)Nc2cccc(Cl)c2)C(c2ccccc2)C(C(=O)Nc2cccc(Cl)c2)=C(C)N1,MIC,H37Rv,-,-,-,>12.5 µg/mL
Cc1cc(Br)ccc1NC1=CC(=O)C(=O)c2ccccc21,MIC,H37Rv,-,resazurin,-,≤0.1 µg/mL
CC(C)C1CCC(=O)c2c1ncc1c2C(=O)C2=C(C1=O)C1CCC2C1,EC99,H37Rv,-,luminescence,pSMT1 luciferase reporter plasmid,48.06 µg/mL
Cc1cccc2nc3n(c(=O)c12)-c1ccccc1C3=O,MIC,H37Rv,-,-,-,1 µg/mL
O=C(CNc1ccccc1[N+](=O)[O-])Sc1nnc(-c2ccncc2)o1,MIC99,H37Rv (ATCC 27294),-,broth dilution / resazurin,-,6.05 µg/mL
CC(C)n1c(=O)c2c3c(cnc2n(C(C)C)c1=O)C(=O)C1=C(C3=O)C2CCC1CC2,EC90,H37Rv,-,luminescence,pSMT1 luciferase reporter plasmid,2.32 µg/mL
O=C1c2cc(F)ccc2-n2c1nc1cc(F)c(F)cc1c2=O,MIC,H37Rv,-,-,-,0.13 µg/mL
NC(N)=N[C@H]1[C@H](O)[C@@H](O)[C@H](O[C@@H]2O[C@H](CO)[C@@H](O)[C@H](O)[C@H]2O)[C@@H](N=C(N)N)[C@@H]1O,MIC,666,-,-,-,>100 µg/mL
O=C(CNc1cccc([N+](=O)[O-])c1)Sc1nnc(-c2ccncc2)o1,inhibition,H37Rv (ATCC 27294),0.0132 µM,BACTEC / radiometric,-,86%
CN(C)CCNc1ccc(CO)c2sc3ccc(O)cc3c(=O)c12,inhibition,H37Rv,12.8 µg/mL,BACTEC,-,0%
O=C(CNc1ccc(Cl)cc1)Sc1nnc(-c2ccncc2)o1,inhibition,H37Rv (ATCC 27294),0.1735 µM,BACTEC / radiometric,-,28%
CCn1cc(C(=O)O)c(=O)c2cc(F)c(N3CCN(Cn4c(O)c(N=NC(=O)c5ccncc5)c5cc(Cl)ccc54)CC3)cc21,MIC bound,H37Rv,-,resazurin,-,<6.25 µg/mL
O=[N+]([O-])c1cn2c(n1)OC[C@@H](OCc1ccc(C#Cc3ccc(F)cc3)cn1)C2,MIC90,-,-,low oxygen,-,1 µM
NNC(=O)c1ccncc1,MIC,88.7,-,resazurin,pyrG V186G,0.025 µg/mL
CC(C)(C)OC(=O)N1N=NC2C3CC(=O)C(O3)C21,MIC bound,H37Rv,-,BACTEC,-,>12.5 µg/mL
O=C1c2cc(I)ccc2-n2c1nc1c(Br)cc(Br)c(Cl)c1c2=O,MIC,H37Rv,-,-,-,0.25 µg/mL
COC(=O)C1=C2Nc3ccccc3C23CCN2C(O)C4(C[C@@H]5C[C@]67CCO[C@H]6CCN6CCC8(c9cccc(OC)c9N(C4)[C@@]58O)[C@@H]67)[C@@H]4OCCC4(C1)[C@H]23,MIC,H37Rv,-,BACTEC,-,≥12.5 µg/mL
O=C(CNc1ccccn1)Sc1nnc(-c2ccncc2)o1,inhibition,H37Rv (ATCC 27294),0.0089 µM,BACTEC / radiometric,-,96%
CCCCNCc1ccc(C)cc1,MIC,H37Rv,-,-,-,250 µg/mL
Cc1cc(C2=NNC(c3cccc([N+](=O)[O-])c3)C2)ccc1O,inhibition,H37Rv,6.25 µg/mL,-,-,88%
CCCCNCc1ccccc1Br,MIC,H37Rv,-,-,-,125 µg/mL
COc1ccc2c(c1)n([O-])c1cc(C#N)ccc1[n+]2=O,MIC bound,H37Rv,-,BACTEC,-,≤12.5 µg/mL
CC(=O)OCCCC/C=C/c1ccc2nc3n(c(=O)c2c1)-c1ccc(Cl)cc1C3=O,MIC,H37Rv,-,-,-,2 µg/mL
COc1ccccc1NC(=O)C1=C(C)NC(C)=C(C(=O)Nc2ccccc2OC)C1c1cccc(Cl)c1,MIC,H37Rv,-,-,-,>6.25 µg/mL
COc1ccc2c(c1OC)C(O)N1CCc3cc4c(cc3C1=C2C(=O)c1ccccc1)OCO4,MIC bound,H37Rv,-,BACTEC,-,>12.5 µg/mL
Nc1ccc(C(=O)O)c(O)c1,inhibition,7800,0.38 µM,-,-,33%
NNC(=O)c1ccncc1,MIC,Clinical isolate 10,-,-,-,0.1 µg/mL
O=[N+]([O-])c1cn2c(n1)OC[C@@H](OCc1ccc(Oc3ccc(C(F)(F)F)nc3)nc1)C2,MIC90,-,-,resazurin,-,0.12 µM
Cl.Cl.Cl.Cl.O=C(Nc1cc(C(=O)Nc2ccc(C3=NCCN3)cc2)cc(C2=NCCN2)c1)c1ccc(C(=O)Nc2cc(C(=O)Nc3ccc(C4=NCCN4)cc3)cc(C3=NCCN3)c2)cc1,inhibition,H37Rv,12.5 µg/mL,BACTEC,-,0%
CC(C)C1CCc2ncc3c(c2C1=O)C(=O)C1=C(C3=O)C2CCC1C2,EC90,H37Rv,-,luminescence,pSMT1 luciferase reporter plasmid,>100 µg/mL
O=c1cc2c(n[nH]1)CCCC2,MIC,H37Rv,-,BACTEC,-,≥128 µg/mL
N#CC(Nc1ccc(F)cc1)c1ccc(OCc2nc3ccccc3[nH]2)cc1,MIC,H37Rv,-,resazurin,-,1.56 µg/mL
COc1ccc(OC)c(N=Nc2c(O)c3ccccc3[nH]c2=O)c1,inhibition,H37Rv,12.5 µg/mL,BACTEC,-,26%
CCC1CCC2(CC1)SC(C)C(=O)N2NC(=O)C(O)(c1ccccc1)c1ccccc1,inhibition,H37Rv,6.25 µg/mL,-,-,53%
O=C1c2ccccc2-n2c1nc1ccc(O)cc1c2=O,MIC,H37Rv,-,-,-,>8 µg/mL
CC(C)CCNCc1ccccc1,MIC,H37Rv,-,-,-,250 µg/mL
O=[N+]([O-])c1cn2c(n1)OC[C@@H](OCc1ccc(Oc3ccc(F)cc3)nc1)C2,MIC90,-,-,low oxygen,-,2 µM
COc1ccc(NC(C#N)c2ccc(OCc3nc4ccccc4[nH]3)cc2)cc1,inhibition,H37Rv,6.25 µg/mL,resazurin,-,63%
O=C1CSC2(CCC(c3ccccc3)CC2)N1NC(=O)C(O)(c1ccccc1)c1ccccc1,inhibition,H37Rv,6.25 µg/mL,-,-,31%
CC(=O)c1cnc(NN)nc1C,inhibition,H37Rv,12.5 µg/mL,BACTEC,-,33%
OCNC(=S)c1cnccn1,MBC,KK11-20,-,-,-,25 µg/mL
COc1cc2c(oc(=O)c3cc(C)cc(OC)c32)c2c(C3OC(C)C(O)C(C)(O)C3O)ccc(O)c12,MIC,PAS-R,-,-,-,6.3 µg/mL
N#CC(Nc1cc(F)ccc1F)c1ccc(OCc2nc3ccccc3[nH]2)cc1,MIC,H37Rv,-,resazurin,-,0.19 µg/mL
Cc1nc2c(c(=O)[nH]1)OCN(Cc1ccccc1)C2,inhibition,H37Rv,12.5 µg/mL,BACTEC,-,-10%
NC(=S)c1cnccn1,MIC,KK11-20,-,-,-,100 µg/mL
O=C(O)C1CC2C3(Cl)C(Cl)=C(Cl)C(Cl)C2(CC1c1c2ccc(=O)c(O)c-2oc2c(O)c(O)ccc12)C3(Cl)Cl,inhibition,H37Rv,12.5 µg/mL,BACTEC,-,2%
O=C1c2cc(Cl)ccc2-n2c1nc1cc(N3CCOCC3)ccc1c2=O,MIC,H37Rv,-,-,-,0.5 µg/mL
CC1CCN(C(=S)S)CC1.CC1CCNCC1,MIC,CS-R,-,-,-,0.8 µg/mL
O[C@H](c1cc(C(F)(F)F)nc2c(C(F)(F)F)cccc12)[C@@H]1CCCCN1,MIC,H37Rv,-,resazurin,-,20 µg/mL

MIC bound: limit read from a one-dose screen. ECn: concentration that inhibits the pathogen or its effect by n%. Inhibition is in % at the dose shown (toxicity tests: loss of growth or viability). Conditions beyond the fields shown may differ between rows. Blank or dashed fields: not listed here.